Laboratory results reported in ChEMBL document CHEMBL4371059 (J Med Chem, 2019).

Key:
Mus musculus [1] = experiment: Anti-inflammatory activity against OPRK deficient mouse model of MOG-induced autoimmune encephalomyelitis assessed as reduction in TH17 cell population in lumbar spinal cord at 100 uL of 20 uM solution administered ip starting from day 1 post immunization and measured 9 to 16 days post …
Mus musculus [2] = experiment: Anti-inflammatory activity against OPRK deficient mouse model of MOG-induced autoimmune encephalomyelitis assessed as inhibition of development of clinical symptoms at 100 uL of 20 uM solution administered ip starting from day 1 post immunization and measured 9 to 16 days post Mycobacterium …
Mus musculus [3] = experiment: Anti-inflammatory activity against OPRK deficient mouse model of MOG-induced autoimmune encephalomyelitis assessed as reduction in immune cell infiltration in to CNS at 100 uL of 20 uM solution administered ip starting from day 1 post immunization and measured 9 to 16 days post Mycobacterium …
Mus musculus [4] = experiment: Anti-inflammatory activity against OPRK deficient mouse model of MOG-induced autoimmune encephalomyelitis assessed as increase in CD5-positive/Foxp3-positive Treg cells at 100 uL of 20 uM solution administered ip starting from day 1 post immunization and measured 9 to 16 days post Mycobacterium …

O=C(Cc1ccc(Cl)c(Cl)c1)N1CCN(Cc2cn(CCF)nn2)[C@H]2CCC[C@H](N3CCCC3)[C@H]21
inactive: Activity (Mus musculus [1]) | inhibition (Mus musculus [2]) | Activity (Mus musculus [3]) | Activity (Mus musculus [4])

O=C(Cc1ccc(Cl)c(Cl)c1)N1CCN[C@H]2CCC[C@H](N3CCCC3)[C@H]21
inactive: Activity (Mus musculus [1]) | inhibition (Mus musculus [2]) | Activity (Mus musculus [3]) | Activity (Mus musculus [4])

Activity calls are given as the source filed them.
